Measured values from several laboratories, pooled; numbers as filed in NIAID ChemDB.

Shared fields: host cell toxicity; cells: MT-4; measure: CC50

Blank or dashed fields: not listed here. CCn: concentration that lowers growth or viability of the cells by n%. Lines come from different laboratories, so protocols vary.

C1CNCCNCCCN(CCN2CCCNCCNCCCNCC2)CCNC1 ; result: 349 µM
C#CCN1C(=O)c2cccn2-c2ccc(Cl)cc2S1(=O)=O ; result: 66.6 µM
Nc1nc2c(ncn2[C@H]2C[C@H](N)[C@@H](CO)O2)c(=O)[nH]1 ; result: 200 µM
CC1(C)S[C@H]([C@H](NC(=O)Cc2ccccc2)C(=O)NCc2ccccc2)N[C@H]1C(=O)N[C@H](Cc1ccccc1)[C@H](O)CC(=O)N[C@@H](CO)c1ccccc1 ; result: >100 µM
C(CCCN1CCCNCCNCCCNCC1)CCN1CCCNCCNCCCNCC1 ; result: 290 µM
C/C(=N\NC(N)=S)c1nc2ccc(Cl)cc2[nH]1 ; method: MTT ; result: 1.96 µg/mL
CCC(C)Oc1cc(=O)[nH]c(S(=O)(=O)c2ccccc2)n1 ; result: 109 µM
CCNC(=O)c1cnnn1C1OC(CO[Si](C)(C)C(C)(C)C)C2(OS(=O)(=O)C=C2N)C1O[Si](C)(C)C(C)(C)C ; result: ≥250 µM
CCC(C)Oc1cc(N)nc(OC(C)CC)n1 ; result: >300 µM
O=C1c2cccn2-c2ccc(Cl)cc2S(=O)(=O)N1C/C=C/c1ccccc1 ; result: >200 µM
CCC(C)Oc1cc(=O)[nH]c(S(=O)(=O)c2ccccc2Cl)n1 ; result: >200 µM
C1CNCCNCC(C2CNCCNCCCNCCNC2)CNCCNC1 ; result: 58 µg/mL
CO[C@H]1O[C@@H](n2ccc(=O)[nH]c2=O)C[C@@H]1N=[N+]=[N-] ; result: 244 µM
NC(=O)P(=O)(O)OCC1O[C@H](n2ccc(N)nc2=O)CS1 ; method: MTT ; result: >2974 µM
C=C[C@@]1(CO)CO[C@H](n2cc(C)c(=O)[nH]c2=O)C1 ; result: >100 µg/mL
Nc1ccn([C@H]2C=C[C@@H](CO)O2)c(=O)n1 ; result: 7.9 µM
Cc1ccc(CN2C(=O)CSC2c2c(Cl)cccc2Cl)o1 ; result: 29.65 µM
Cc1cn([C@H]2C=C[C@@H](COC(=O)CNC(=O)C(=O)/C=C(\O)c3cc(OCc4ccccc4)cc(OCc4ccccc4)c3)O2)c(=O)[nH]c1=O ; method: MTT ; result: >10 µM
C1CNCCNCCCN[C@H]([C@H]2CNCCCNCCNCCCN2)CNC1 ; result: 298 µg/mL
Cc1cn([C@H]2C[C@H](N=[N+]=[N-])[C@@H](CO)O2)c(=O)[nH]c1=O ; method: MTT ; result: >10 µM
CCn1cc(C(=O)O)c(=O)c2cc(Br)c(Oc3ccnc(Nc4ccc(C#N)cc4)n3)cc21 ; method: MTT ; result: 20.46 µM
Cc1cn([C@H]2C[C@H](F)[C@@H](CO)O2)c(=O)nc1N ; result: 206 µM
c1ncc(CN2CCCNCCNCCCNCC2)cc1CN1CCCNCCNCCCNCC1 ; result: >500 µg/mL
CC1(C)S[C@H]([C@H](NC(=O)Cc2ccccc2)C(=O)NCc2ccccc2)N[C@H]1C(=O)N[C@H](Cc1ccccc1)[C@H](O)CC(=O)NCCCO ; result: >100 µM
O=C1c2cccn2-c2ccc(Cl)cc2S(=O)(=O)N1C1CC1 ; result: >200 µM
C1CNCCNCCCN[C@H]([C@@H]2CNCCCNCCNCCCN2)CNC1 ; result: 319 µM
CCc1c(Sc2cc(C)cc(C)c2)n(COCCOP(=O)(O)OC[C@H]2O[C@@H](n3cc(C)c(=O)[nH]c3=O)C[C@@H]2N=[N+]=[N-])c(=O)[nH]c1=O ; result: 15.5 µM
Nc1nc2c(ncn2[C@H]2C=C[C@@H](CO)O2)c(=O)[nH]1 ; result: 11 µM
O=C1c2cccn2-c2ccc(Cl)cc2S(=O)(=O)N1C1CCC1 ; result: >200 µM
O=C(CNC(=O)C(=O)/C=C(\O)c1cccn1Cc1ccc(F)cc1)OC[C@@H]1C=C[C@H](n2ccc(=O)[nH]c2=O)O1 ; method: MTT ; result: >10 µM
CCCn1cc(C(=O)O)c(=O)c2cc(Br)c(Oc3ccnc(Nc4ccc(C#N)cc4)n3)cc21 ; method: MTT ; result: 18.16 µM
C1CNCCNCCCN(CCCN2CCCNCCNCCCNCC2)CCNC1 ; result: >500 µg/mL
CCCCNC(=S)N/N=C(\C)c1nc2ccc(Cl)cc2[nH]1 ; method: MTT ; result: 1.69 µg/mL
Nc1ccn([C@H]2CC[C@@H](CO)O2)c(=O)n1 ; result: 9.1 µM
CCC(C)Oc1cc(=O)[nH]c(Sc2ccc(OC)cc2)n1 ; result: >300 µM
CC1CCC(C(=O)N(c2cc(C#CC(C)(C)C)sc2C(=O)O)C2CCC(O)CC2)CC1 ; method: luminescence ; result: 23.1 µM
Cc1cn(/C=C/[C@H](O)[C@H](O)CO)c(=O)[nH]c1=O ; result: 500 µM
Nc1cc(Cl)nc(Nc2cccc3ccccc23)n1 ; result: 143 µM
Cc1cccc(N2C(=O)CSC23CCCCC3)n1 ; result: 381 µM
Cc1cn([C@H]2C[C@H](N)[C@@H](CO)O2)c(=O)[nH]c1=O ; result: 206 µM
Cc1cn([C@H]2C[C@H](N=[N+]=[N-])[C@@H](CO)O2)c(=O)[nH]c1=O ; method: MTT ; result: 36.78 µM
CC1(C)S[C@H]([C@H](NC(=O)Cc2ccccc2)C(=O)NCc2ccccc2)N[C@H]1C(=O)N[C@H](Cc1ccccc1)[C@H](O)CC(=O)N[C@@H](CO)Cc1ccccc1 ; result: >100 µM
Cc1cn([C@H]2C=C[C@@H](COC(=O)CCNC(=O)C(=O)/C=C(\O)c3cccn3Cc3ccc(F)cc3)O2)c(=O)[nH]c1=O ; method: MTT ; result: >10 µM
C=C[C@@]1(CO)CO[C@@H](n2cc(C)c(=O)[nH]c2=O)C1 ; result: >100 µg/mL
O=c1[nH]cnc2c1ncn2[C@H]1CC[C@@H](CO)O1 ; result: 226 µM
Nc1ncnc2c1ncn2[C@H]1CC[C@@H](CO)O1 ; result: 890 µM
CCN1C(c2ccccc2)c2cccn2-c2ccc(Cl)cc2S1(=O)=O ; result: 7.4 µM
NC(=O)c1ncn([C@H]2O[C@@H](COP(=O)(O)OC[C@@H]3C=C[C@H](n4cnc5c(=O)[nH]cnc54)O3)[C@H](O)[C@@H]2O)n1 ; result: 17.5 µM
COC(=O)c1cn(C)c2cc(Oc3ccnc(Nc4ccc(C#N)cc4)n3)c(Br)cc2c1=O ; method: MTT ; result: 159 µM
CC(C)(C)[Si](C)(C)OCC1OC(n2nncc2C(=O)NC2CCC2)C(O[Si](C)(C)C(C)(C)C)C12OS(=O)(=O)C=C2N ; result: >250 µM
COc1cc(OC)c(C2SCC(=O)N2c2cccc(C)n2)c(OC)c1 ; result: 194.3 µM
CC(C)NC(=O)c1cnnn1C1OC(CO[Si](C)(C)C(C)(C)C)C2(OS(=O)(=O)C=C2N)C1O[Si](C)(C)C(C)(C)C ; result: >250 µM
CC1(C)S[C@H]([C@H](NC(=O)Cc2ccccc2)C(=O)NCc2ccccc2)N[C@H]1C(=O)NCCNC(=O)[C@@H]1N[C@@H]([C@H](NC(=O)Cc2ccccc2)C(=O)NCc2ccccc2)SC1(C)C ; result: >100 µM
CCCCn1cc(C(=O)O)c(=O)c2cc(I)c(Oc3ccnc(Nc4ccc(C#N)cc4)n3)cc21 ; method: MTT ; result: 3.23 µM
CN(C)c1ccc(C2SCC(=O)N2c2ccccn2)cc1 ; result: 254 µM
CC1(C)S[C@H]([C@H](NC(=O)Cc2ccccc2)C(=O)NCc2ccccc2)N[C@H]1C(=O)NCC(O)CNC(=O)[C@@H]1N[C@@H]([C@H](NC(=O)Cc2ccccc2)C(=O)NCc2ccccc2)SC1(C)C ; result: >100 µM
CCc1cc(CCC2(C3CCCC3)CC(O)=C(Cc3nc4nc(C)cc(C)n4n3)C(=O)O2)cc(CC)n1 ; method: luminescence ; result: 59 µM
CCN(C)C(=O)c1cnnn1C1OC(CO[Si](C)(C)C(C)(C)C)C2(OS(=O)(=O)C=C2N)C1O[Si](C)(C)C(C)(C)C ; result: 88 µM
Nc1nc2c(ncn2[C@H]2C[C@H](F)[C@@H](CO)O2)c(=O)[nH]1 ; result: 185 µM
O=C(O)C(=O)CC(=O)c1cc(OCc2ccccc2)cc(OCc2ccccc2)c1 ; method: MTT ; result: >10 µM
CCC(C)Oc1cc(N)nc(S(=O)(=O)c2cccc(OC)c2)n1 ; result: 99.5 µM
CC(C)n1cc(C(=O)O)c(=O)c2cc(Br)c(Oc3ccnc(Nc4ccc(C#N)cc4)n3)cc21 ; method: MTT ; result: 23.56 µM
CC1(C)S[C@H]([C@H](NC(=O)Cc2ccccc2)C(=O)NCc2ccccc2)N[C@H]1C(=O)N[C@H](Cc1ccccc1)[C@H](O)CC(=O)NCC(O)CO ; result: >100 µM
CCNC(=O)[C@@H](NC(=O)Cc1ccccc1)[C@@H]1N[C@@H](C(=O)NCCNC(=O)[C@@H]2N[C@@H]([C@H](NC(=O)Cc3ccccc3)C(=O)NCC)SC2(C)C)C(C)(C)S1 ; result: >100 µM

A second listing of 9 rows from above:

compound	method	result
Cc1cn([C@H]2C[C@H](F)[C@@H](CO)O2)c(=O)nc1N		206 µM
CCC(C)Oc1cc(=O)[nH]c(Sc2ccc(OC)cc2)n1		>300 µM
CCc1c(Sc2cc(C)cc(C)c2)n(COCCOP(=O)(O)OC[C@H]2O[C@@H](n3cc(C)c(=O)[nH]c3=O)C[C@@H]2N=[N+]=[N-])c(=O)[nH]c1=O		15.5 µM
Nc1ncnc2c1ncn2[C@H]1CC[C@@H](CO)O1		890 µM
COc1cc(OC)c(C2SCC(=O)N2c2cccc(C)n2)c(OC)c1		194.3 µM
C(CCCN1CCCNCCNCCCNCC1)CCN1CCCNCCNCCCNCC1		290 µM
C1CNCCNCCCN[C@H]([C@H]2CNCCCNCCNCCCN2)CNC1		298 µg/mL
Cc1cn([C@H]2C=C[C@@H](COC(=O)CCNC(=O)C(=O)/C=C(\O)c3cccn3Cc3ccc(F)cc3)O2)c(=O)[nH]c1=O	MTT	>10 µM
Nc1nc2c(ncn2[C@H]2C=C[C@@H](CO)O2)c(=O)[nH]1		11 µM